Pooled drug test results. Numbers come from NIAID ChemDB, via PubChem.

Common to all: whole-cell or culture tests

An empty or dashed field is not shown. A number after MIC or MFC names an inhibition level or a share of isolates. Conditions beyond the fields shown may differ between rows. Zones are inhibition diameters on agar. ECn is the concentration giving n% inhibition of infection, replication or growth. Inhibition is in % at the dose shown (toxicity tests: loss of growth or viability).

compound	read by	measure	organism	tested at	conditions	strain	value
Cc1nn(Cc2cn(CCCCn3cc(Cn4nc(C)n(/N=C/c5cccs5)c4=O)nn3)nn2)c(=O)n1/N=C/c1cccs1	agar diffusion	zone	Mycobacterium luteus	20 mg/mL			0.6 mm
CC(C)NCCNC(C)C		EC50	Mycobacterium smegmatis			ATCC 607	<60 µg/mL
COc1ccn2nc(C)c(C(=O)NCc3ccc(N4CCC(c5ccc(OC(F)(F)F)cc5)CC4)c(F)c3)c2c1.Cl	fluorescence	inhibition	Mycobacterium avium	0.014 µM			85%
CCCCCc1ccc(NC(=O)NNC(=O)c2ccncc2)cc1	broth dilution	MIC100	Mycobacterium kansasii		7 d	My 235/80	32 µM
Cc1nn(Cc2cn(CCCn3cc(Cn4nc(C)n(/N=C/c5cccs5)c4=O)nn3)nn2)c(=O)n1/N=C/c1cccs1	agar diffusion	zone	Mycobacterium luteus	20 mg/mL			0.6 mm
CC[C@H]1OC(=O)[C@H](C)[C@@H](O[C@H]2C[C@@](C)(OC)[C@@H](O)[C@H](C)O2)[C@H](C)[C@@H](O[C@@H]2O[C@H](C)C[C@H](N(C)C)[C@H]2O)[C@](C)(O)C[C@@H](C)CN(C)[C@H](C)[C@@H](O)[C@]1(C)O	broth dilution / visual reading	MIC100	Mycobacterium abscessus			Clinical isolate MR313367D	1 µg/mL
CCc1nc2ccc(Cl)cn2c1C(=O)NCc1ccc(N2CCN(c3ccc(OCC(F)(F)F)cc3)[C@@H](C)C2)c(F)c1	fluorescence	inhibition	Mycobacterium avium	0.011 µM			85%
CCCCc1ccc(NC(=O)NNC(=O)c2ccncc2)cc1	broth dilution	MIC100	Mycobacterium kansasii		14 d	My 6509/96	62.5 µM
CO[C@H]1/C=C/O[C@@]2(C)Oc3c(C)c(O)c4c(O)c(c(/C=N/N5CCN(C6CCCC6)CC5)c(O)c4c3C2=O)NC(=O)/C(C)=C\C=C\[C@H](C)[C@H](O)[C@@H](C)[C@@H](O)[C@@H](C)[C@H](OC(C)=O)[C@@H]1C		MIC	Mycobacterium avium intracellulare			16-Feb	0.5 µg/mL
CC1(C)N=C(N)N=C(N)N1OCCCOc1cc(Cl)c(Cl)cc1Cl		MIC	Mycobacterium avium complex			DW18	1 µg/mL
O=C(NNC(=O)c1ccncc1)Nc1ccc(Br)c(C(F)(F)F)c1	broth dilution	MIC100	Mycobacterium kansasii		14 d	My 6509/96	125 µM
O=c1oc2ccc(F)cc2c(=S)n1-c1ccc(C(F)(F)F)cc1		MIC	Mycobacterium kansasii		14 d	6509/96	8 µM
CN[C@@H]1[C@H](O[C@H]2[C@H](O[C@H]3[C@H](O)[C@@H](O)[C@H](N=C(N)N)[C@@H](O)[C@@H]3N=C(N)N)O[C@@H](C)[C@]2(O)C=O)O[C@@H](CO)[C@H](O)[C@H]1O	agar diffusion	zone	Mycobacterium luteus	10 µg/mL			1.456 mm
[2H]c1c(C([2H])([2H])[2H])c([2H])n2c(C(=O)NCc3cc(F)ccc3F)c(C)nc2c1[2H]	fluorescence	inhibition	Mycobacterium avium	0.8 µM			85%
Fc1ccc2oc(=S)n(-c3ccc(Cl)c(Cl)c3)c(=S)c2c1		MIC	Mycobacterium kansasii		21 d	My 235/80	4 µM
O=c1[nH]c(=O)n([C@H]2C[C@H](O)[C@@H](CO)O2)cc1I		EC50	Mycobacterium avium			ATCC 25291	>50 µg/mL
COc1ccc(/C=N/n2c(C)nn(Cc3cn(CCCCn4cc(Cn5nc(C)n(/N=C/c6ccc(OC)cc6)c5=O)nn4)nn3)c2=O)cc1	agar diffusion	zone	Mycobacterium luteus	20 mg/mL			1.21 mm
CC(NCCNC(C)c1ccccc1)c1ccccc1		inhibition	Mycobacterium smegmatis	250 µg/mL		ATCC 607	100%
FC(F)(F)c1ccc(-n2c(=S)oc3ccc(Cl)cc3c2=S)cc1		MIC	Mycobacterium kansasii		21 d	My 235/80	16 µM
O=c1[nH]c(=O)n([C@H]2C=C[C@@H](CO)O2)cc1I		EC50	Mycobacterium avium			ATCC 25291	>50 µg/mL
COc1ccc(Nc2nnc(-c3ccncc3)o2)cc1	broth dilution	MIC100	Mycobacterium kansasii		7 d	My 6509/96	>125 µM
Cc1ccc2oc(=S)n(-c3ccc(F)cc3)c(=S)c2c1		MIC	Mycobacterium kansasii		21 d	6509/96	8 µM
CC(C)CNCCNCC(C)C		EC50	Mycobacterium smegmatis			ATCC 607	>250 µg/mL
CCc1nc2cc(F)ccn2c1C(=O)NCc1ccc(N2CCN(c3ccc(OC(F)(F)F)cn3)[C@@H](C)C2)c(F)c1.Cl	fluorescence	inhibition	Mycobacterium avium	0.0042 µM			85%
O=C(O)c1cn(C2CC2)c2cc(N3C[C@@H]4CCCN[C@@H]4C3)c(F)cc2c1=O		MIC99	Mycobacterium smegmatis			A91V mutant	0.5 µg/mL
CC(=O)OC[C@@H]1CC[C@H](n2ccc(=O)[nH]c2=O)O1		EC50	Mycobacterium avium			ATCC 25291	>50 µg/mL
C[C@@H]1CN(c2c(F)c(N)c3c(=O)c(C(=O)O)cn(C4CC4)c3c2F)C[C@H](C)N1	broth dilution / visual reading	MIC	Mycobacterium intracellulare			ATCC 13950	0.3 µg/mL
CC(C)N=c1cc2n(-c3ccc(Cl)cc3)c3ccccc3nc-2cc1Nc1ccc(Cl)cc1	broth dilution	MIC90	Mycobacterium chelonae				1 µg/mL
CCOC(=O)c1c(-c2ccccc2)c2ccc(Cl)cc2oc1=O	resazurin	MIC90	Mycobacterium chelonae			ATCC 35752	>100 µg/mL
COc1c(N2CC[C@@H](CN)C2)c(F)cc2c(=O)c(C(=O)O)cn(C3CC3)c12		MIC99	Mycobacterium smegmatis			WT	0.062 µg/mL
COc1ccc2oc(=O)n(-c3cccc(F)c3)c(=S)c2c1		MIC	Mycobacterium kansasii		21 d	My 235/80	32 µM
Clc1ccc(Nc2nnc(-c3ccncc3)o2)cc1Cl	broth dilution	MIC100	Mycobacterium kansasii		14 d	My 6509/96	>125 µM
COc1ccc(/C=N/n2c(C)nn(Cc3cn(CCCCCCCCn4cc(Cn5nc(C)n(/N=C/c6ccc(OC)cc6)c5=O)nn4)nn3)c2=O)cc1	agar diffusion	zone	Mycobacterium luteus	20 mg/mL			0.6 mm
O=c1oc2ccc(Cl)cc2c(=S)n1-c1cccc(F)c1		MIC	Mycobacterium kansasii		14 d	6509/96	8 µM
O=c1[nH]c(=O)n([C@H]2C[C@H](O)[C@@H](CO)O2)cc1F		inhibition	Mycobacterium avium	50 µg/mL		ATCC 25291	80%
COc1ccc(/C=N/n2c(C)nn(Cc3cn(CCCn4cc(Cn5nc(C)n(/N=C/c6ccc(OC)cc6)c5=O)nn4)nn3)c2=O)cc1	agar diffusion	zone	Mycobacterium luteus	20 mg/mL			0.6 mm
S=c1oc2ccc(Br)cc2c(=S)n1-c1ccc(Br)cc1		MIC	Mycobacterium kansasii		21 d	My 235/80	4 µM
Cc1nn(Cc2cn(CCCCCCn3cc(Cn4nc(C)n(/N=C/c5cccs5)c4=O)nn3)nn2)c(=O)n1/N=C/c1cccs1	agar diffusion	zone	Mycobacterium luteus	20 mg/mL			0.6 mm
COc1c(N2CC[C@@H](CN)C2)c(F)cn2c(=O)n(N)c(=O)c(C3CC3)c12		MIC99	Mycobacterium smegmatis			A91V mutant	10 µg/mL
CCc1nc2ccc(Cl)cn2c1C(=O)NCc1ccc(C2CCN(c3ccc(OC(F)(F)F)cc3)[C@@H](C)C2)c(F)c1.Cl	fluorescence	inhibition	Mycobacterium avium	0.0062 µM			85%
COc1c(N2C[C@@H]3CCCN[C@@H]3C2)c(F)cc2c(=O)[nH]c(=O)n(C3CC3)c12		MIC99	Mycobacterium smegmatis			G89C mutant	50 µg/mL
Cc1ccc2nc(C)c(C(=O)NCc3ccc4c(c3)OCCO4)n2c1	fluorescence	inhibition	Mycobacterium avium	0.86 µM			85%
O=C(NNC(=O)c1ccncc1)Nc1ccc(F)c(C(F)(F)F)c1	broth dilution	MIC100	Mycobacterium kansasii		14 d	My 6509/96	62.5 µM
CC(O)c1cn([C@H]2C[C@H](O)[C@@H](CO)O2)c(=O)[nH]c1=O		EC90	Mycobacterium avium			ATCC 25291	5 µg/mL
CC(C)(C)CC(C)(C)NCCNC(C)(C)CC(C)(C)C		inhibition	Mycobacterium smegmatis	30 µg/mL		ATCC 607	100%
Cc1noc(NS(=O)(=O)c2ccc(N)cc2)c1C	agar diffusion	zone	Mycobacterium luteus	300 µg/mL			1 mm
CCc1nc2ccc(Cl)cn2c1C(=O)NCc1ccc(N2CCN(c3ccc(OC(F)(F)F)cc3)C(C)(C)C2)c(F)c1	fluorescence	inhibition	Mycobacterium avium	0.0091 µM			85%
CCC(C)NCCNC(C)CC		inhibition	Mycobacterium smegmatis	125 µg/mL		ATCC 607	100%
COc1c(N2CC[C@H](N)C2)c(F)cc2c(=O)n(N)c(=O)n(C3CC3)c12		MIC99	Mycobacterium smegmatis			WT	12.5 µg/mL
Cc1cn([C@@H]2O[C@H](CO)[C@@H](O)[C@H]2F)c(=O)[nH]c1=O		EC50	Mycobacterium avium			ATCC 25291	>50 µg/mL
Cc1ccc(-n2c(=S)oc3ccc(C)cc3c2=S)cc1		MIC	Mycobacterium kansasii		14 d	6509/96	2 µM
CCc1nc(N)nc(N)c1-c1ccc(Cl)cc1		MIC	Mycobacterium avium complex			ATCC49601	32 µg/mL
CC(=O)OC[C@H]1O[C@@H](n2cc(/C=C/Br)c(=O)[nH]c2=O)C[C@@H]1OC(C)=O		inhibition	Mycobacterium avium	50 µg/mL		ATCC 25291	0%

A second listing of 5 rows from above:

compound	read by	measure	organism	tested at	conditions	strain	value
CC[C@H]1OC(=O)[C@H](C)[C@@H](O[C@H]2C[C@@](C)(OC)[C@@H](O)[C@H](C)O2)[C@H](C)[C@@H](O[C@@H]2O[C@H](C)C[C@H](N(C)C)[C@H]2O)[C@](C)(O)C[C@@H](C)CN(C)[C@H](C)[C@@H](O)[C@]1(C)O	broth dilution / visual reading	MIC100	Mycobacterium abscessus			Clinical isolate MR313367D	1 µg/mL
Cc1nn(Cc2cn(CCCCn3cc(Cn4nc(C)n(/N=C/c5cccs5)c4=O)nn3)nn2)c(=O)n1/N=C/c1cccs1	agar diffusion	zone	Mycobacterium luteus	20 mg/mL			0.6 mm
COc1c(N2CC[C@@H](CN)C2)c(F)cc2c(=O)c(C(=O)O)cn(C3CC3)c12		MIC99	Mycobacterium smegmatis			WT	0.062 µg/mL
[2H]c1c(C([2H])([2H])[2H])c([2H])n2c(C(=O)NCc3cc(F)ccc3F)c(C)nc2c1[2H]	fluorescence	inhibition	Mycobacterium avium	0.8 µM			85%
CC(O)c1cn([C@H]2C[C@H](O)[C@@H](CO)O2)c(=O)[nH]c1=O		EC90	Mycobacterium avium			ATCC 25291	5 µg/mL